Source: article PMC10313052, “Filarial DAF-12 sense the host serum to resume iL3 development during infection” (PLOS Pathogens, 2023)

Biological target: T1, BmaDAF-12 (Brugia malayi, UniProt A0A4E9F2L4, R841H)
T1 sequence (A0A4E9F2L4 639-880 R841H): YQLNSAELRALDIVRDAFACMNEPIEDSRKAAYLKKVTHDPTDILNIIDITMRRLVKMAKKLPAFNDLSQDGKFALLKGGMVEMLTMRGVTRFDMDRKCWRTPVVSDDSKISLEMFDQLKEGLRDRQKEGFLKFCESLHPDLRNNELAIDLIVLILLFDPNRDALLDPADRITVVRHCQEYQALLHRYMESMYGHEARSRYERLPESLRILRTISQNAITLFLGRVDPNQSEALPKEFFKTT
Assay type: cell-based
Conditions: read-out: EC50 (logEC50 SE) (converted); NIH3T3, 24 h, technical triplicates, Fig 2

3β-hydroxy-5-cholestenoic acid
EC50: 241 nM
